From patent US20230226072A1 (priority 2020, published 2023) come the findings set out here.

This experiment has as its system SARS-CoV-2 virus. The note with it: 2.5 mg/I, incubated with virus […].

As for `CN(C)c1ccc2nc3ccc(=[N+](C)C)cc-3sc2c1.[Cl-]` [methylene blue, [7-(dimethylamino)phenothiazin-3-ylidene]-dimethylazanium; chloride], the “viricidal effect (virus titer)” value is reported as “total viricidal effect”.
